Measurements: ChEMBL document CHEMBL5500399, “Design, Synthesis, and Biological Evaluation of 1,2,4-Oxadiazole Derivatives Containing an Aryl Carboxylic Acid Moiety as Potent Sarbecovirus Papain-like Protease Inhibitors” (J Med Chem, 2024)
Active and inactive are the calls of the source. The rule behind the calls is not given here.

Target: Replicase polyprotein 1ab (Severe acute respiratory syndrome coronavirus 2) (UniProt P0DTD1)
Test: Inhibition of SARS-CoV2 PLpro cleavage activity using 2Ub-K48 as substrate incubated overnight by SYPRO Ruby staining based SDS-PAGE analysis

Cc1ccc(N)cc1C(=O)N[C@H](C)c1cccc2ccccc12
inhibition: Active
